Experimental data from patent US12486489B2, “Culture medium for testing drug resistance of H.pylori as well as preparation method and use thereof” (priority 2022, dated 2025).

Tested on: H. pylori
Test: Verification of resistance breakpoint: growth of laboratory strains on Columbia solid culture medium with added antibiotics, 72 hours
Assay type: cell-based, Helicobacter pylori
Details: conclusion of breakpoint verification
Procedure: The plates are cooled and inverted for approximately 10 mL/piece, marked properly for the subsequent use.
(2) Preparation of bacterial solution: H. pylori grown in logarithmic phase on a solid plate is taken to prepare a bacterial suspension by using BHI. The concentration OD600 is adjusted to 0.3 (1×10^8 CFU/mL), diluted 10 times for the subsequent use.
(3) Inoculation of bacterial solution: 10 μL of bacterial solution is taken and added to Columbia culture medium and the results are determined after cultivating for 72 hours.
(4) Result determination: the minimum drug concentration for no growth of bacteria on the plate is the minimum inhibitory concentration of the bacteria against the drug.

In the case of CC1(C)S[C@@H]2[C@H](NC(=O)[C@H](N)c3ccc(O)cc3)C(=O)N2[C@H]1C(=O)O [Amoxicillin, amoxicillin], the “optimal concentration for adding antibiotics” value is reported as 0.0625 µg/mL.
